The results in this text go back to patent US20170029451A1, “BRANCHED CHAIN ACYCLIC NUCLEOSIDE PHOSPHONATE ESTERS AND METHODS OF SYNTHESIS AND USES THEREOF” (CHIMERIX, INC., priority 2013, published 2017).

Structures are written as SMILES.

Conditions in all cases: CC50/EC50, human foreskin fibroblast cells
Data set [1] relates to Herpes Simplex Virus 1 (Strain E-377). Kind of data set: Plaque reduction assay, HSV-1 in human foreskin fibroblast cells. It is filed as cell-based. (Plaque reduction counts the foci of infection that form in a cell layer.)
The subject of data set [2] is Vaccinia Virus (Strain Copenhagen). The format is cell-based.
In data set [3] the test system is Cowpox Virus (Strain Brighton). The format is cell-based.
Another data set has as its system HCMV (Strain AD169). Description: Plaque reduction assay, HCMV AD169 in human foreskin fibroblast cells. The format is cell-based, Human Cytomegalovirus (HCMV).

In the case of `Nc1nc2c(ncn2COCCO)c(=O)[nH]1` [Acyclovir, reference compound], the “HSV-1 SI50” value in data set [1] is more than 45.

Turning to `Nc1ccn(C[C@@H](CO)OCP(=O)(O)O)c(=O)n1` [Cidofovir, reference compound], in data set [2], the “VACV SI50” value is more than 13. Further, the “CPXV SI50” value in data set [3] is more than 10.

With `CC(C)CCCCCCCCCCCCCCOCCCOP(=O)(O)COC(CO)Cn1ccc(=O)[nH]c1=O` (centres unmarked) [Compound 12], the “HCMV SI50” value with HCMV (Strain AD169) is listed as more than 961. Further, the “VACV SI50” value in data set [2] is on record as 1. Besides, in data set [3], the “CPXV SI50” value worked out at 1. In addition, in data set [1], the “HSV-1 SI50” value worked out at 1.

Turning to `Nc1nc(O)c2ncn(COC(CO)CO)c2n1` [Ganciclovir, reference compound], in the data set on HCMV (Strain AD169), the “HCMV SI50” value is on record as more than 67.
